Values from PubChem BioAssay AID624099 (ICCB-Longwood, 2012)
Assay: 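Knock-downs relieving repression by E2 of an HPV18 LCR luciferase reporter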 (primary screen). Cell system: human C33A cervical carcinoma cells (HPV-negative) stably expressing BPV1 E2 and an HPV18 LCR luciferase reporter. Reagent: siRNA pool against human genes, 40 nM. Duration: 72 h. Measured: 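Per-well luciferase luminescence, z-scored on each plate against the plate mean and SD with control wells left out, then averaged across three replicate plates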. Direction: mean z-score and z-score: higher = stronger reporter signal, weaker E2 silencing. Hit rule: 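Mean z ≥ 2 together with z ≥ 2 in two or more of the three replicates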.
Here is one part, drawn at random, of about 21,000 reagents. Of all reagents, 497 (2.4%) got an active call. 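Higher z means weaker E2 silencing; only reporter increases were scored, and knock-downs that hurt cell survival may mask genuine repressor factors.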 Entries without a mark were called inactive. Reagents against one gene are numbered here.

gene | reagent no. | mean z-score | z-score, replicate A | z-score, replicate B | z-score, replicate C
ZBTB2 (zinc finger and BTB domain containing 2) | 1 | -1.22 | -1.29 | -0.9 | -1.46
TMEM120A (transmembrane protein 120A) | 1 | -0.74 | -0.8 | -0.77 | -0.66
SERGEF (secretion regulating guanine nucleotide exchange factor) | 1 | -0.16 | 0.07 | -0.37 | -0.19
AMOT (angiomotin) | 1 | -0.76 | -0.63 | -1.03 | -0.62
CTNND1 (catenin delta 1) | 1 | 1.48 | 1.68 | 1.45 | 1.32
CYB561D1 (cytochrome b561 family member D1) | 1 | -1.21 | -1.35 | -1.16 | -1.11
SMPD3 (sphingomyelin phosphodiesterase 3) | 1 | -1.53 | -1.49 | -1.34 | -1.75
SULT1E1 (sulfotransferase family 1E member 1) | 1 | 0.2 | 0.35 | 0.29 | -0.03
TMEM132A (transmembrane protein 132A) | 1 | 1.07 | 1.22 | 1.44 | 0.55
BCL2 (BCL2 apoptosis regulator) | 1 | -0.7 | -0.49 | -0.83 | -0.79
SSTR4 (somatostatin receptor 4) | 1 | -0.64 | -0.77 | -0.61 | -0.54
PRICKLE3 (prickle planar cell polarity protein 3) | 1 | 1.49 | 1.27 | 1.5 | 1.7
IMPG2 (interphotoreceptor matrix proteoglycan 2) | 1 | 1.6 | 1.61 | 1.59 | 1.61
CDK5 (cyclin dependent kinase 5) | 1 | 0.02 | 0.44 | -0.26 | -0.11
C9 (complement C9) | 1 | -0.76 | -0.75 | -0.67 | -0.84
SIGLEC6 (sialic acid binding Ig like lectin 6) | 1 | -0.68 | -0.75 | -0.54 | -0.74
TACSTD2 (tumor associated calcium signal transducer 2) | 1 | -0.25 | -0.42 | 0.09 | -0.43
OR5W2 (olfactory receptor family 5 subfamily W member 2) | 1 | -0.05 | -0.64 | 0 | 0.48
SKP1 (S-phase kinase associated protein 1) | 1 | 2.22 (active) | 2.41 | 2.23 | 2.02
RBBP5 | 1 | -0.07 | 0.13 | -0.19 | -0.16
GBA1 (glucosylceramidase beta 1) | 1 | 0.33 | 0.34 | 0.16 | 0.48
LDHC (lactate dehydrogenase C) | 1 | -0.26 | -0.23 | 0.02 | -0.58
PROZ (protein Z, vitamin K dependent plasma glycoprotein) | 1 | 0.25 | 0.19 | 0.33 | 0.23
POLL (DNA polymerase lambda) | 1 | -0.36 | -0.24 | -0.26 | -0.58

The list goes on (7 carried over from the part before).
gene | reagent no. | mean z-score | z-score, replicate A | z-score, replicate B | z-score, replicate C
OR5W2 (olfactory receptor family 5 subfamily W member 2) | 1 | -0.05 | -0.64 | 0 | 0.48
SKP1 (S-phase kinase associated protein 1) | 1 | 2.22 (active) | 2.41 | 2.23 | 2.02
RBBP5 | 1 | -0.07 | 0.13 | -0.19 | -0.16
GBA1 (glucosylceramidase beta 1) | 1 | 0.33 | 0.34 | 0.16 | 0.48
LDHC (lactate dehydrogenase C) | 1 | -0.26 | -0.23 | 0.02 | -0.58
PROZ (protein Z, vitamin K dependent plasma glycoprotein) | 1 | 0.25 | 0.19 | 0.33 | 0.23
POLL (DNA polymerase lambda) | 1 | -0.36 | -0.24 | -0.26 | -0.58
TCL1A (TCL1 family AKT coactivator A) | 1 | -0.35 | -0.14 | -0.27 | -0.63
IL22 (interleukin 22) | 1 | -0.94 | -0.97 | -0.69 | -1.15
RPF2 (ribosome production factor 2 homolog) | 1 | -0.68 | -0.98 | -0.59 | -0.48
SSH1 (slingshot protein phosphatase 1) | 1 | 0.59 | 0.64 | 0.4 | 0.73
ROR1 (ROR family WNT receptor 1) | 1 | -0.18 | -0.61 | 0.06 | 0.01
TMEM185A (transmembrane protein 185A) | 1 | 0.38 | 0.3 | 0.38 | 0.46
PABPC4 (poly(A) binding protein cytoplasmic 4) | 1 | -0.7 | -0.9 | -0.69 | -0.51
TMEM33 (transmembrane protein 33) | 1 | -0.23 | -0.65 | -0.43 | 0.38
POLA1 (DNA polymerase alpha 1, catalytic subunit) | 1 | 0.34 | 0.18 | 0.29 | 0.56
LOC284397 (retired record) | 1 | 0.79 | 0.81 | 0.67 | 0.88
LOC284409 (retired record) | 1 | -0.94 | -1.24 | -0.86 | -0.72
JAGN1 (jagunal vesicle mediated transporter 1) | 1 | -0.98 | -1.34 | -1 | -0.61
ABI1 (abl interactor 1) | 1 | 0.55 | 0.96 | 0.28 | 0.41
RSPO2 (R-spondin 2) | 1 | -0.53 | -0.83 | -0.04 | -0.71
EGFL8 (EGF like domain multiple 8) | 1 | 0.85 | 1.16 | 0.51 | 0.9
LYPD2 (LY6/PLAUR domain containing 2) | 1 | -2.26 | -2.21 | -2.09 | -2.49
KRT77 (keratin 77) | 1 | 0.07 | 0.35 | 0.19 | -0.32
IGSF10 (immunoglobulin superfamily member 10) | 1 | 0.23 | 0.36 | 0.01 | 0.34
CDO1 (cysteine dioxygenase type 1) | 1 | 2.77 (active) | 2.51 | 2.71 | 3.08
RIOK1 (RIO kinase 1) | 1 | 1.22 | 1.03 | 1.03 | 1.59
LPAR1 (lysophosphatidic acid receptor 1) | 1 | 0.12 | 0.19 | 0.25 | -0.09
KLF12 (KLF transcription factor 12) | 1 | -0.92 | -1.22 | -0.7 | -0.84
SSX6P (SSX family member 6, pseudogene) | 1 | -0.08 | -0.04 | -0.2 | 0
LOC401581 (retired record) | 1 | 0.79 | 0.55 | 1.32 | 0.5
TCF20 (transcription factor 20) | 1 | 0.55 | 0.47 | 0.65 | 0.53
CCN5 (cellular communication network factor 5) | 1 | 0.13 | -0.09 | 0.28 | 0.21
C2orf80 (chromosome 2 open reading frame 80) | 1 | 0.62 | 0.6 | 1.07 | 0.18
RPSA (ribosomal protein SA) | 1 | -2.87 | -2.92 | -2.9 | -2.81
ALG9 (ALG9 alpha-1,2-mannosyltransferase) | 1 | 0.02 | -0.21 | 0.26 | 0
BPIFB4 (BPI fold containing family B member 4) | 1 | -0.61 | -0.54 | -0.12 | -1.16
CCDC140 (CCDC140 long non-coding RNA) | 1 | -0.3 | -0.37 | -0.2 | -0.33
TENT5D (terminal nucleotidyltransferase 5D) | 1 | -0.18 | -0.42 | -0.49 | 0.38
CLN5 (CLN5 lysosomal BMP synthase) | 1 | -0.21 | -0.38 | -0.2 | -0.03
CEP76 (centrosomal protein 76) | 1 | -0.65 | -1.05 | -0.75 | -0.16
ZNF12 (zinc finger protein 12) | 1 | -0.11 | -0.5 | -0.1 | 0.28
ZNF12 (zinc finger protein 12) | 2 | 0.6 | 0.59 | 0.72 | 0.48
LIAS (lipoic acid synthetase) | 1 | -1.54 | -1.57 | -1.47 | -1.58
MAGOH (mago homolog, exon junction complex subunit) | 1 | -0.57 | -0.45 | -0.81 | -0.47
MAGIX (MAGI family member, X-linked) | 1 | -0.31 | -0.13 | -0.33 | -0.46
TH (tyrosine hydroxylase) | 1 | -0.41 | -0.31 | -0.63 | -0.28
ZNF117 (zinc finger protein 117) | 1 | 0.79 | 0.8 | 1 | 0.55
ZNF117 (zinc finger protein 117) | 2 | 2.08 | 2.48 | 1.98 | 1.79
TCF7 (transcription factor 7) | 1 | -1.82 | -1.93 | -1.63 | -1.9
CPHL1P (ceruloplasmin and hephaestin like 1, pseudogene) | 1 | 0.51 | 0.43 | 0.45 | 0.64
ATP6V1B2 (ATPase H+ transporting V1 subunit B2) | 1 | -1.84 | -2.06 | -1.78 | -1.68
RGL3 (ral guanine nucleotide dissociation stimulator like 3) | 1 | -0.58 | -0.87 | -0.64 | -0.24
PDK3 (pyruvate dehydrogenase kinase 3) | 1 | 0.68 | 0.64 | 0.71 | 0.7
PCDH8 (protocadherin 8) | 1 | 0.62 | 0.83 | 0.74 | 0.28
DCTN2 (dynactin subunit 2) | 1 | -0.6 | -0.53 | -0.51 | -0.75
